Measured values from several laboratories, pooled; numbers as filed in NIAID ChemDB.

Shared fields: tests in culture; organism: Mycobacterium tuberculosis

A number after MIC or MFC names an inhibition level or a share of isolates. An empty or dashed field is not shown. MIC bound: limit read from a one-dose screen. Rows are shuffled and stem from different studies. Percent inhibition refers to the dose given; in toxicity tests it is the harm to the cells. ECn: concentration that inhibits the pathogen or its effect by n%.

| smiles | strain or isolate | method | read-out | tested at | value |
|---|---|---|---|---|---|
| NC1=CC(=O)C(=O)c2ccccc21 | H37Rv | - | inhibition | 6.25 µg/mL | -28% |
| COc1ccc2c(=O)c(-c3c(-c4ccccc4)oc4cc(OC)ccc4c3=O)c(-c3ccccc3)oc2c1 | H37Rv | - | EC50 | - | >12.5 µg/mL |
| Cc1cc(N=Nc2ccc(N(C)C)c(C)c2)ccc1N(C)C | H37Rv | - | MIC | - | >100 µg/mL |
| CCCCCC(C)NCCNC[C@]1(C)CCC[C@]2(C)c3ccc(C(C)C)cc3CC[C@@H]12 | - | - | MIC | - | 12.5 µM |
| CCOC(=O)Nc1cc2c(c(N)n1)N=C1c3ccccc3CCC1O2 | H37Rv | - | EC50 | - | <12.5 µg/mL |
| Nc1cc(C(=O)c2ccccc2C(=O)O)ccc1C(=O)O | H37Rv | - | MIC | - | >100 µg/mL |
| Nc1ncccc1/C=C/C(=O)c1ccc2c(c1)-c1ccccc1C2 | - | - | EC50 | - | <12.5 µg/mL |
| Nc1c(Cl)ccc2cccnc12 | H37Rv | - | MIC | - | 50 µg/mL |
| COc1ccc(CNCCNCc2ccccc2Cl)c(OC)c1 | - | - | MIC | - | 50 µM |
| Cc1cc(=O)oc2ccc(O)cc12 | H37Rv | - | MIC | - | >100 µg/mL |
| CO[C@H]1/C=C/O[C@@]2(C)Oc3c(C)c(O)c4c(=O)c(c5oc6cc(N7CCN(CC(C)C)CC7)cc(=O)c6nc5c4c3=C2O)NC(=O)/C(C)=C\C=C\[C@H](C)[C@H](O)[C@@H](C)[C@@H](O)[C@@H](C)[C@H](OC(C)=O)[C@@H]1C | TN657 | - | MIC | - | 1 µg/mL |
| Nc1c(Cl)cc(Cl)c2c1C(=O)c1ccccc1C2=O | H37Rv | - | MIC | - | >100 µg/mL |
| CC(CNCCc1ccccc1F)NC[C@@H]1CC[C@H]2C[C@@H]1C2(C)C | - | - | MIC | - | 25 µM |
| CC1COc2c(N3CCN(C)CC3)c(F)cc3c(=O)c(C(=O)O)cn1c23 | ATCC35838 | - | MBC | - | 1 µg/mL |
| O=C1c2ccc(O)c(O)c2C(=O)c2c(O)ccc(O)c21 | H37Rv | - | MIC | - | >100 µg/mL |
| CCOC(=O)Nc1cc(NC(=O)OCC)c2c(c1C)NC(C)C(c1ccccc1)=N2 | H37Rv | - | inhibition | 12.5 µg/mL | 0% |
| CCCCC(CC)CN1CN(CC(CC)CCCC)CC(C)(NCCNCc2ccc(F)cc2)C1 | - | - | MIC | - | 50 µM |
| COc1ccc(C2OC3=C(Nc4ccc([N+](=O)[O-])cc4N3)C2=O)cc1OC | H37Rv | BACTEC | MIC bound | - | >12.5 µg/mL |
| Cc1cc(C)c(C2=CCCC(C(=O)O)O2)c(C)c1 | H37Rv | - | MIC | - | 50 µg/mL |
| CC(C)c1ccc2c(c1)CC[C@H]1[C@](C)(CNCCNCCc3ccccc3F)CCC[C@]21C | - | - | MIC | - | 50 µM |
| CCOC(=O)Nc1cc(NC(C)C(=O)c2ccccc2)c([N+](=O)[O-])c(N)n1 | H37Rv | - | EC50 | - | >12.5 µg/mL |
| CSC(=S)N/N=C(/C)Cc1ccccn1 | INH-r | - | MIC | - | 1.6 µg/mL |
| C=CCNc1nc(NC(=O)OCC)cc(N)c1[N+](=O)[O-] | H37Rv | - | inhibition | 12.5 µg/mL | 0% |
| CCCCC(CC)CN1CN(CC(CC)CCCC)CC(C)(NCCNCCOC)C1 | - | - | MIC | - | 6.25 µM |
| CC[C@H]1OC(=O)[C@H](C)[C@@H](O[C@H]2C[C@@](C)(OC)[C@@H](O)[C@H](C)O2)[C@H](C)[C@@H](O[C@@H]2O[C@H](C)C[C@H](N(C)C)[C@H]2O)[C@](C)(O)C[C@@H](C)CN(C)[C@H](C)[C@@H](O)[C@]1(C)O | ATCC 35820 | - | MBC | - | >8 µg/mL |
| COc1ccc2c(c1)C13CCN4CC5=CCOC6CC(=O)N2C1C6C5CC43 | H37Rv | BACTEC | MIC bound | - | >12.5 µg/mL |
| CCCCCCCCCCCNCCNCC(c1ccccc1)c1ccccc1 | - | - | MIC | - | 12.5 µM |
| CO[C@H]1/C=C/O[C@@]2(C)Oc3c(C)c(O)c4c(O)c(c(/C=N/N5CCN(C/C=C/c6ccccc6)CC5)c(O)c4c3C2=O)NC(=O)/C(C)=C\C=C\[C@H](C)[C@H](O)[C@@H](C)[C@@H](O)[C@@H](C)[C@H](OC(C)=O)[C@@H]1C | 2983 (rifampin-sensitive) | - | MIC | - | 0.05 µg/mL |
| c1ccc(C(CNCCNCCN2CCOCC2)c2ccccc2)cc1 | - | - | MIC | - | 25 µM |
| CCOC(=O)Nc1cc(NCCCCc2ccccc2)c(N)c(N)n1 | H37Rv | - | EC50 | - | <12.5 µg/mL |
| NCC[C@H](O)C(=O)N[C@@H]1C[C@H](N)[C@@H](O[C@H]2O[C@H](CN)[C@@H](O)[C@H](O)[C@H]2O)[C@H](O)[C@H]1O[C@H]1O[C@H](CO)[C@@H](O)[C@H](N)[C@H]1O | TN810 (001/19) | - | MIC | - | >256 µg/mL |
| Cc1ccc(Cl)cc1S(N)(=O)=O | H37Rv | - | MIC | - | 100 µg/mL |
| NC1CCN(c2nc3c(cc2F)c(=O)c(C(=O)O)cn3-c2ccc(F)cc2F)C1 | Drug-resistant | - | MBC90 | - | >8 µg/mL |
| Cc1ccc([N+](=O)[O-])cc1N | H37Rv | - | MIC | - | >100 µg/mL |
| Cc1cc2c(cc1C)-c1c(oc3cc(C)c(C)cc13)-c1ccccc1C(=O)O2 | H37Rv | BACTEC | inhibition | 12.5 µg/mL | -11% |
| CC(C)N=c1cc2n(-c3ccc(Cl)cc3)c3ccccc3nc-2cc1Nc1ccc(Cl)cc1 | MDR2 | broth dilution / resazurin | MIC | - | 8 µg/mL |
| OCc1cccs1 | H37Rv | - | MIC | - | 50 µg/mL |
| COc1ccc(C2CC(=O)c3cc(C(=O)O)ccc3O2)cc1 | - | - | EC50 | - | >12.5 µg/mL |
| C/C(O)=C(\C=N\C(=S)Nc1ccccc1)C(=O)Nc1ccc(Cl)cc1 | H37Rv | BACTEC | MIC bound | - | <6.25 µg/mL |
| [Cl-].[Cl][Fe]([Cl])[Cl].c1ccc(-c2ccc(-c3ccccc3)c(-c3ccccc3)[o+]2)cc1 | H37Rv | - | MIC | - | >100 µg/mL |
| COc1cc(C(=O)O)c2c(c1C)OC(=O)c1c(C)cc(O)c(C=O)c1O2 | H37Rv | BACTEC | inhibition | 12.5 µg/mL | -2% |
| COc1ccccc1/C=C/C(=O)c1ccccc1O | - | - | inhibition | 12.5 µg/mL | 39% |
| N#CC1CN(Cc2ccccc2)C(=O)C1=O | H37Rv | resazurin | MIC bound | - | >6.25 µg/mL |
| CCCCCNCCNC[C@]1(C)CCC[C@]2(C)c3ccc(C(C)C)cc3CC[C@@H]12 | - | - | MIC | - | 50 µM |
| Cn1c(=O)cc2c3c(c(Br)ccc31)C(=O)c1ccccc1-2 | H37Rv | - | MIC | - | 25 µg/mL |
| c1ccc(CCCCNCCNCC(c2ccccc2)c2ccccc2)cc1 | - | - | MIC | - | 6.25 µM |
| NNC(=O)CNc1cccc(Cl)c1F | H37Rv | BACTEC | MIC | - | ≥12.5 µg/mL |
| COc1ccc(C(=O)/C=C/c2ccco2)c(O)c1 | H37Rv | - | EC50 | - | >12.5 µg/mL |
| CC(CNCCC(c1ccccc1)c1ccccc1)N[C@@H]1C[C@@H]2C[C@H]([C@H]1C)C2(C)C | - | - | MIC | - | 50 µM |
| O=C(O)c1ccc(=O)oc1 | H37Rv | - | MIC | - | >100 µg/mL |
| CC[C@H]1OC(=O)[C@H](C)[C@@H](O[C@H]2C[C@@](C)(OC)[C@@H](O)[C@H](C)O2)[C@H](C)[C@@H](O[C@@H]2O[C@H](C)C[C@H](N(C)C)[C@H]2O)[C@](C)(OC)C[C@@H](C)C(=O)[C@H](C)[C@@H](O)[C@]1(C)O | ATCC 35827 | - | MBC | - | >8 µg/mL |
| CC(C)c1ccc2c(c1)CC[C@H]1[C@](C)(CNCCNC3CCCC3)CCC[C@]21C | - | - | MIC | - | 25 µM |
| CCCC/C(=N/O)C(=O)O | H37Rv | - | MIC | - | >100 µg/mL |
| C=C1C(=O)OC2[C@@H]1[C@@H](OC(=O)/C(C)=C/C)C[C@@]1(CO1)[C@H]1[C@@H](OC(C)=O)C=C(C)[C@@]21O | H37Rv | BACTEC | MIC | - | ≥12.8 µg/mL |
| CC(C)c1ccc2c(c1)CC[C@H]1[C@](C)(CNCCNC[C@@H](C)O)CCC[C@]21C | - | - | MIC | - | 50 µM |
| O=C(NNC(=O)c1cccnc1)Nc1cccc(Cl)c1Cl | H37Rv | BACTEC | inhibition | 12.5 µg/mL | 13% |
| CC1(C)[C@H]2CC[C@@H](CNCCNCC34CC5CC(CC(C5)C3)C4)[C@@H]1C2 | - | - | MIC | - | 3.13 µM |
| CCOC(=O)NN(C(=O)OCC)C1CCN=C1C(=O)OC | H37Rv | resazurin | inhibition | 6.25 µg/mL | -63% |
| O=C(CC(Br)C(=O)c1ccccc1)c1ccccc1 | H37Rv | - | MIC | - | >100 µg/mL |
| CC1=NN(c2cc(Cl)c(S(=O)(=O)O)cc2Cl)C(=O)C1 | H37Rv | resazurin | inhibition | 6.25 µg/mL | -23% |
| O=C1CC(c2ccccc2)Oc2cc(I)ccc21 | H37Rv | - | inhibition | 12.5 µg/mL | 9% |
| CCOC(=O)c1c(NC(=O)c2cccs2)sc2c1CCC2 | H37Rv | resazurin | MIC bound | - | >6.25 µg/mL |
| O=C(OC(=O)c1cccc2ccccc12)c1cccc2ccccc12 | H37Rv | - | MIC | - | 100 µg/mL |
| CC(=O)NS(=O)(=O)c1ccc(N=NC2C(=O)N(C(=O)c3ccncc3)N=C2C)cc1 | H37Rv | BACTEC | MIC | - | ≥12.8 µg/mL |
| CC(C)CC(C)NCCNCCC(c1ccccc1)c1ccccc1 | - | - | MIC | - | 6.25 µM |
| O=C1CCCCCCCCCCCCCCCO1 | CS-R | - | MIC | - | >12.8 µg/mL |
| CC(=O)Nc1ccc(S(=O)(=O)Nc2nccc(N3CCCCC3)n2)cc1 | H37Rv | - | MIC | - | >100 µg/mL |
| COc1c2c(c(CC=C(C)C)c3oc(=O)c(-c4ccc(O)cc4)c(O)c13)OC(C)(C)C=C2 | H37Rv | BACTEC | MIC bound | - | >12.5 µg/mL |
| CCN(CC)c1ccc(N=C(C(=O)Nc2ccc(S(=O)(=O)N(C)c3ccccc3)cc2)C(=O)c2ccccc2)c(C)c1 | H37Rv | - | MIC | - | >100 µg/mL |
| O=C(CNC(=O)OCc1ccccc1)NC(CO)C(=O)O | H37Rv | BACTEC | MIC bound | - | >12.8 µg/mL |
| CO[C@H]1/C=C/O[C@@]2(C)Oc3c(C)c(O)c4c(=O)c(c5oc6cc(N7CCN(C(C)C)CC7)cc(=O)c6nc5c4c3=C2O)NC(=O)/C(C)=C\C=C\[C@H](C)[C@H](O)[C@@H](C)[C@@H](O)[C@@H](C)[C@H](OC(C)=O)[C@@H]1C | 33 (rifampin-resistant) | - | MBC | - | 0.2 µg/mL |
| S=C(S)N1CCCC1 | H37Rv | BACTEC | inhibition | 12.5 µg/mL | 100% |
| CCOC(=O)Nc1cc2[nH]c(-c3ccccc3)nc2c(N)n1 | H37Rv | - | EC50 | - | >12.5 µg/mL |
| COc1cc2oc(-c3ccc(O)cc3O)c(CC=C(C)C)c(=O)c2c(O)c1/C=C/C(C)C | H37Rv | BACTEC | inhibition | 12.5 µg/mL | 99% |
| NC(=O)NCc1ccccc1 | H37Rv | - | MIC | - | >100 µg/mL |

The last 5 rows once more:

smiles,strain or isolate,method,read-out,tested at,value
CO[C@H]1/C=C/O[C@@]2(C)Oc3c(C)c(O)c4c(=O)c(c5oc6cc(N7CCN(C(C)C)CC7)cc(=O)c6nc5c4c3=C2O)NC(=O)/C(C)=C\C=C\[C@H](C)[C@H](O)[C@@H](C)[C@@H](O)[C@@H](C)[C@H](OC(C)=O)[C@@H]1C,33 (rifampin-resistant),-,MBC,-,0.2 µg/mL
S=C(S)N1CCCC1,H37Rv,BACTEC,inhibition,12.5 µg/mL,100%
CCOC(=O)Nc1cc2[nH]c(-c3ccccc3)nc2c(N)n1,H37Rv,-,EC50,-,>12.5 µg/mL
COc1cc2oc(-c3ccc(O)cc3O)c(CC=C(C)C)c(=O)c2c(O)c1/C=C/C(C)C,H37Rv,BACTEC,inhibition,12.5 µg/mL,99%
NC(=O)NCc1ccccc1,H37Rv,-,MIC,-,>100 µg/mL